Compound potency records, mixed from different reports. Data source: NIAID ChemDB in PubChem.

All rows: target-level tests; organism: Plasmodium falciparum

ICn is the concentration giving n% inhibition. Rows are shuffled and stem from different studies. An empty or dashed field is not shown.

SMILES | strain | changes | target | method | read-out | result
CC1=C(C2CCC(c3ccc(Cl)cc3)CC2)C(=O)c2ccccc2C1=O |  |  | Glutathione reductase |  | IC50 | >25 µM
COc1ccc(C=C2SC(=O)N(CC(=O)N3CCN(c4ccccc4)CC3)C2=O)cc1 |  |  | Falcipain-2 | fluorescence | IC50 | >50 µM
CCOP(=O)(CCC(=O)Nc1cccc(O)c1)OCC |  |  | PfDXR | absorbance | IC50 | >500 µM
O=C(CN1C(=O)SC(=Cc2ccc(F)c(F)c2)C1=O)N1CCN(c2ccccc2)CC1 |  |  | Falcipain-2 | fluorescence | IC50 | >50 µM
CC1(C)N=C(N)N=C(N)N1OCCCOc1cc(Cl)c(Cl)cc1Cl |  | quadruple mutant | Dihydrofolate reductase | absorbance | Ki | 0.0019 µM
COc1cc(OC)c(C=C2SC(=O)N(CC(=O)N3CCN(C4CCCCC4)CC3)C2=O)c(OC)c1 |  |  | Falcipain-2 | fluorescence | IC50 | >50 µM
CC(C)C[C@H](NC(=O)C1CCC2(CC1)OOC1(O2)C2CC3CC(C2)CC1C3)C(=O)N[C@H](/C=C/S(=O)(=O)c1ccccc1)CCc1ccccc1 |  |  | Falcipain-2 | fluorescence | IC50 | 2.929 µM
CCCCNOCC1=C(Nc2ccc3ccccc3c2)SCC1=O |  |  | Dihydroorotate dehydrogenase |  | IC50 | >50 µM
CCN1C(=O)SC(=Cc2c(OC)cc(OC)cc2OC)C1=O |  |  | Falcipain-2 | fluorescence | IC50 | >50 µM
CCOP(=O)(CC(=O)Nc1cccc(OC)c1)OCC |  |  | PfDXR | absorbance | IC50 | >500 µM
O=C1CSC(Nc2ccc3ccccc3c2)=C1CONCC1CC1 |  |  | Dihydroorotate dehydrogenase |  | IC50 | >50 µM
O=C1C=C(CF)C(=O)c2ccccc21 |  |  | Glutathione reductase |  | IC50 | 27.5 µM
O=S(=O)(/C=C/[C@H](CCc1ccccc1)NC1CCC2(CC1)OOC1(OO2)C2CC3CC(C2)CC1C3)c1ccccc1 |  |  | Falcipain-2 | fluorescence | IC50 | >50 µM
O=C1C(c2ccc(-c3ccc(Cl)cc3)cc2)=C(C(F)(F)F)C(=O)c2ccccc21 |  |  | Glutathione reductase |  | IC50 | >25 µM
COc1ccc(C=C2SC(=O)N(CC(=O)N3CCN(c4ccccc4)CC3)C2=O)c(OC)c1 |  |  | Falcipain-2 | fluorescence | IC50 | >50 µM
O=C(CCC(c1ccccc1)P(=O)(O)O)NO |  |  | PfDXR | absorbance | Ki | 0.0021 µM
CC(C)C[C@H](NC(=O)C1CCC2(CC1)OOC1(OO2)C2CC3CC(C2)CC1C3)C(=O)N[C@H](/C=C/S(=O)(=O)c1ccccc1)Cc1ccccc1 |  |  | Falcipain-2 | fluorescence | IC50 | 8.093 µM
COc1cc(OC)c(C=C2SC(=O)N(CC(=O)N3CCN(c4ccncc4)CC3)C2=O)c(OC)c1 |  |  | Falcipain-2 | fluorescence | IC50 | >50 µM
O=C1C=C(O)c2ccccc2C1=O |  |  | Glutathione reductase |  | IC50 | >100 µM
COc1cc(OC)c(C=C2SC(=O)N(Cc3ccc(F)cc3F)C2=O)c(OC)c1 |  |  | Falcipain-2 | fluorescence | IC50 | 29.08 µM
C=C1C(=O)C[C@@H]2/C=C(\COC(C)=O)CC/C=C(/C=O)[C@H](OC(C)=O)[C@@H](OC(=O)C(C)CC)[C@@H]12 | 3D7 |  | Lactate dehydrogenase |  | IC50 | 0.94 µg/mL
COc1cc(OC)c(C=C2SC(=O)N(C34CC5CC(CC(C5)C3)C4)C2=O)c(OC)c1 |  |  | Falcipain-2 | fluorescence | IC50 | 29.08 µM
CCN(CC)CCCC(C)Nc1ccnc2cc(Cl)ccc12 |  |  | Histidine-rich protein 2 | ELISA | IC50 | 1.03 µM
Cc1ccc(NC2=C(ON)C(=O)CS2)cc1C |  |  | Dihydroorotate dehydrogenase |  | IC50 | >50 µM
CN(O)C(=O)CCC(c1ccccc1)P(=O)(O)O |  |  | PfDXR | absorbance | IC50 | 0.0031 µM
CN(C)C(=O)/C=C/[C@H](CCc1ccccc1)NC(=O)CN1C(=O)[C@@H](COC(=O)Nc2ccc(Cl)cc2C(F)(F)F)N=C(c2ccccc2)c2ccccc21 | FCBR |  | Falcipain-2 | fluorescence | Ki | 0.95 µM

4 of the rows above, restated:

SMILES,strain,changes,target,method,read-out,result
CC1(C)N=C(N)N=C(N)N1OCCCOc1cc(Cl)c(Cl)cc1Cl,,quadruple mutant,Dihydrofolate reductase,absorbance,Ki,0.0019 µM
CC(C)C[C@H](NC(=O)C1CCC2(CC1)OOC1(OO2)C2CC3CC(C2)CC1C3)C(=O)N[C@H](/C=C/S(=O)(=O)c1ccccc1)Cc1ccccc1,,,Falcipain-2,fluorescence,IC50,8.093 µM
CCN(CC)CCCC(C)Nc1ccnc2cc(Cl)ccc12,,,Histidine-rich protein 2,ELISA,IC50,1.03 µM
O=C1C=C(O)c2ccccc2C1=O,,,Glutathione reductase,,IC50,>100 µM